# Laboratory results taken from ChEMBL document CHEMBL4732232, “Protease targeted COVID-19 drug discovery: What we have learned from the past SARS-CoV inhibitors?” (Eur J Med Chem, 2021).
# Experiment: Inhibition of SARS CoV papain-like protease (1541 to 1855 residues) using Arg-Leu-Arg-Gly-Gly-AMC as substrate preincubated for 5 mins followed by substrate addition and shaken for 30 secs and further incubated for 6 mins by fluorescence method
# Design: species or system Severe acute respiratory syndrome-related coronavirus
smiles,measurement,value
Cc1ccccc1C(=O)N[C@@H](C)c1cccc2ccccc12,IC50,2300 nM
